Anti-infective test results gathered from many reports (values: NIAID ChemDB through PubChem).

Common to all: whole-cell or culture tests; species: HIV-1; cell line: CEM; endpoint: EC50

An empty or dashed field is not shown. ECn: concentration that inhibits the pathogen or its effect by n%. Rows are shuffled and stem from different studies.

| compound | strain | changes | read by | setting | result |
|---|---|---|---|---|---|
| CC(C)=CCN1Cc2cccc3[nH]c(=S)n(c23)C[C@@H]1C | - | - | - | - | 0.0204 µM |
| CCN1C(=O)N(Cc2ccccc2)S(=O)(=O)c2cscc21 | IIIB | RT-K103N | syncytia | - | >310 µM |
| Cc1cn([C@@H]2O[C@H](CO[Si](C)(C)C(C)(C)C)[C@@]3(OS(=O)(=O)C=C3N)[C@H]2O[Si](C)(C)C(C)(C)C)c(=O)[nH]c1=O | IIIB | RT-E138K | syncytia | - | 4.7 µM |
| O=C1N(Cc2ccccc2)c2cscc2S(=O)(=O)N1Cc1ccccc1 | IIIB | RT-E138K | syncytia | - | ≥10 µM |
| Cc1ccnc2c1NC(=O)c1cccnc1N2C1CC1 | - | - | cytopathic effect / XTT | - | 0.09 µM |
| O=c1[nH]cnc2c1ncn2[C@H]1CC[C@@H](CO)O1 | IIIB-BHAP)(0.1)(RT-L100I | RT-L100I | syncytia | - | 11 µM |
| Cc1cn([C@H]2CC(SSC(Cl)(Cl)Cl)[C@@H](CO)O2)c(=O)[nH]c1=O | IIIB | - | syncytia | - | <25 µM |
| Cc1cn([C@H]2C[C@H](N=[N+]=[N-])[C@@H](CO)O2)c(=O)[nH]c1=O | pNL4-3 | - | p24 | 4 d | 0.0045 µM |
| Nc1nc2c(ncn2[C@H]2C=C[C@@H](CO)C2)c(=O)[nH]1 | - | - | cytopathic effect / XTT | - | 0.15 µg/mL |
| Cc1ccnc2c1N(CN1CCN(Cc3ccccc3)CC1)C(=O)c1cccnc1N2C1CC1 | - | - | cytopathic effect / XTT | - | 0.523 µM |
| Cc1cn([C@H]2C[C@H](N=[N+]=[N-])[C@@H](CN3C(=O)c4cccc([N+](=O)[O-])c4C3=O)O2)c(=O)[nH]c1=O | IIIB | - | syncytia | - | 6.8 µM |
| Nc1nc2c(ncn2[C@@H]2CC[C@H](CO)O2)c(=O)[nH]1 | - | - | - | - | >100 µM |
| C=CNC(=S)n1nc(-c2ccccc2NC(=O)C(F)(F)F)c(=O)n(C(=S)NC=C)c1=S | RF | - | cytopathic effect / XTT | - | 7.92 µg/mL |
| Cc1cc(C)cc(Sc2c(C(C)C)c(=O)[nH]c(=S)n2COCCO)c1 | IIIB | - | syncytia | - | 0.003 µM |
| CC(C)Nc1cccnc1N1CCN(C(=O)c2cc3ccccc3[nH]2)CC1 | Pyr(RT-Y181C) | RT-Y181C | syncytia | - | 0.9 µM |
| Nc1ncnc2c1ncn2CCOCP(=O)(O)O | - | - | cytopathic effect / MTT | - | 3.7 µM |
| CCOCn1c(Cc2ccccc2)c(C(C)C)c(=O)[nH]c1=O | B-1 (RT L100V K103R/K Y188H) | RT-L100V K103R/K Y188H | cytopathic effect | - | 0.011 µg/mL |
| CC(=O)ON1COC[C@H]2O[C@@H](n3cc(C)c(=O)[nH]c3=O)C[C@@H]21 | IIIB | - | syncytia | - | >50 µg/mL |
| Nc1nc2c(ncn2[C@H]2CC[C@@H](CO)O2)c(=O)[nH]1 | IIIB | - | - | - | 1.1 µM |
| Cc1cn([C@H]2C[C@H](N=[N+]=[N-])[C@@H](CO)O2)c(=O)[nH]c1=O | IIIB | - | syncytia | - | 0.015 µM |
| CC(C)=CCN1Cc2cccc3[nH]c(=S)n(c23)C[C@@H]1C | IIIB | - | syncytia | - | 0.09 µM |
| CC(C)(C)NC(=O)c1ccccc1SC[C@@H](O)[C@H](Cc1ccccc1)NC(=O)[C@H](CC(N)=O)NC(=O)c1ccc2ccccc2n1 | - | - | - | - | 0.48 µg/mL |
| Cc1ccnc2c1NC(=O)c1cccnc1N2C1CC1 | IIIB-TIBO(0.1) | - | syncytia | - | 0.06 µg/mL |
| Cc1cn([C@H]2C[C@H](N=[N+]=[N-])[C@@H](CN3C(=O)c4c(Br)c(Br)c(Br)c(Br)c4C3=O)O2)c(=O)[nH]c1=O | IIIB | - | syncytia | - | 1.7 µM |
| N#CCN1C(=O)N(Cc2ccccc2)S(=O)(=O)c2cscc21 | IIIB | RT-K103N | syncytia | - | >300 µM |
| CC(C)CN(C[C@@H](O)[C@H](Cc1ccccc1)NC(=O)[C@H](CC(N)=O)NC(=O)c1ccc2ccccc2n1)C(=O)NC(C)(C)C | LAV-1 | - | RT activity | - | <1.18 µM |
| Nc1ccn([C@H]2CC[C@@H](CO)O2)c(=O)n1 | IIIB-Nevirapine(0.1)(RT-Y181C) | RT-Y181C | syncytia | - | 0.006 µM |
| Cc1ccnc2c1NC(=O)c1cccnc1N2C1CC1 | IIIB | RT-L100I | syncytia | - | 0.07 µM |
| CC(C)=CCOc1cc(NC(=S)c2ccoc2C)ccc1Cl | A-0 (RT-L100I) | RT-L100I | cytopathic effect | - | 0.0082 µg/mL |
| O=C(O)c1cn2c3c(c(N4CCN(c5ccccn5)CC4)c(F)cc3c1=O)OCC2CF | IIIB | - | p24 | - | 0.19 µg/mL |
| Cc1ccnc2c1NC(=O)c1cccnc1N2C1CC1 | BRU | - | p24 | - | 0.039 µM |
| CC[C@H]1OC(=O)[C@H](C)[C@@H](O[C@H]2C[C@@](C)(OC)[C@@H](O)[C@H](C)O2)[C@H](C)[C@@H](O[C@@H]2O[C@H](C)C[C@H](N(C)C)[C@H]2O)[C@](C)(O)C[C@@H](C)C(=O)[C@H](C)[C@@H](O)[C@]1(C)O | LAV-1 | - | RT activity | - | <107 µg/mL |
| Cc1ccnc2c1N(CN1CCN(c3ccc(Cl)cc3)CC1)C(=O)c1cccnc1N2C1CC1 | - | - | cytopathic effect / XTT | - | 0.0159 µM |
| Nc1ccn([C@H]2CC[C@@H](CO)O2)c(=O)n1 | BRU | - | p24 | - | 0.04 µM |
| CC(C)Nc1cccnc1N1CCN(C(=O)c2cc3cc(NS(C)(=O)=O)ccc3[nH]2)CC1 | E-2 (RT-V106A) | RT-V106A | cytopathic effect | - | 0.045 µg/mL |
| Nc1ncnc2c1ncn2[C@@H]1C=C[C@H](CO)O1 | - | - | - | - | 0.54 µM |
| Cc1cn([C@H]2C[C@H](N=[N+]=[N-])[C@@H](CO)O2)c(=O)[nH]c1=O | IIIB | - | syncytia | - | 0.006 µM |
| CC(C)=CCN1Cc2cccc3[nH]c(=S)n(c23)C[C@@H]1C | TSAO-m3T-resistant (RT E138K) | RT-E138K | - | - | 0.07 µM |
| O=C(n1c2ccccc2c2n[nH]c(=S)nc21)C(F)(F)F | RF | - | cytopathic effect / XTT | - | >12.5 µg/mL |
| CC(C)(C)[Si](C)(C)OC[C@H]1O[C@@H](n2ccc(=O)[nH]c2=O)[C@H](O[Si](C)(C)C(C)(C)C)C12OS(=O)(=O)C=C2N | IIIB | RT-E138K | syncytia | - | >8 µM |
| CN1C(=O)N(Cc2ccccc2)S(=O)(=O)c2cscc21 | IIIB | RT-L100I | syncytia | - | 12.9 µM |
| Cc1cn([C@H]2C[C@H](N=[N+]=[N-])[C@@H](CN3C(=O)c4ccc(C(=O)OCC56CC7CC(CC(C7)C5)C6)cc4C3=O)O2)c(=O)[nH]c1=O | IIIB | - | syncytia | - | 0.06 µM |
| Cc1cn([C@H]2C[C@H](N=[N+]=[N-])[C@@H](CO)O2)c(=O)[nH]c1=O | IIIB-TSAO-m3T(10)(RT-Y181C) | RT-Y181C | syncytia | - | 0.002 µM |
| Cc1ccnc2c1N(CN1CCN(C)CC1)C(=O)c1cccnc1N2C1CC1 | - | - | cytopathic effect / XTT | - | 0.44 µM |
| Cc1cn([C@H]2C[C@H](N=[N+]=[N-])[C@@H](CO)O2)c(=O)[nH]c1=O | IIIB/LAI | - | antigen | - | 0.003 µM |
| CCOC(=O)CSc1nnc(-c2ccccc2NC(=O)C(F)(F)F)c(=O)[nH]1 | RF | - | cytopathic effect / XTT | - | >62.5 µg/mL |
| Cc1cn([C@H]2C[C@@H]3[C@@H](COCN3O)O2)c(=O)[nH]c1=O | IIIB | - | syncytia | - | 20 µg/mL |
| C#CCN1C(=O)N(Cc2ccccc2)S(=O)(=O)c2cscc21 | IIIB | RT-E138K | syncytia | - | 30.1 µM |
| Cc1cn([C@@H]2O[C@H](CO[Si](C)(C)C(C)(C)C)C3(OS(=O)(=O)C=C3N)[C@H]2O[Si](C)(C)C(C)(C)C)c(=O)n(C)c1=O | Quin-0.1 (RT V106A P225H) | RT-V106A P225H | syncytia | - | 2.2 µM |
| COc1ccc(N2CCN(CN3C(=O)c4cccnc4N(C4CC4)c4nccc(C)c43)CC2)cc1 | - | - | cytopathic effect / XTT | - | 0.12 µM |
| CCc1cc(NCc2nc3c(Cl)ccc(Cl)c3o2)c(=O)[nH]c1C | MN-QUIN(RT-G190E) | RT-G190E | syncytia | - | >3 µM |
| Cc1cn([C@H]2C[C@H](N=[N+]=[N-])[C@@H](CN3C(=O)c4ccc([N+](=O)[O-])cc4C3=O)O2)c(=O)[nH]c1=O | IIIB | - | syncytia | - | 29.9 µM |